These results are taken from US20220089656A1.

This assay has as its target human FcγRII (CD32) expressed on K562 cells (human) (UniProt P12318).

Substance “armY-ACE2 fusion protein (Protein M fused to human angiotensin-converting enzyme 2)” yielded a percent of cells in gate M1 of 5.9%.
